Test results: patent US20080241276A1, “Portable bio-chemical decontaminant system and method of using the same” (published 2008)

Key:
Escherichia coli = assay: In vitro carrier testing (Quantitative Use-Dilution Test); settings: 40 ppm, 1 minute exposure, stainless steel carriers, 5% horse serum
Pseudomonas aeruginosa [1] = assay: as above; settings: 40 ppm, 1 minute exposure, stainless steel carriers, 5% horse serum
[2] = system: various solutions of microorganisms; assay: In vitro suspension test (FIG. 19); settings: 1 ppm, contact time approximately one minute
Bacillus cereus spores = settings: for Population, spores / Reduction vs. Water, spores: after 5-min treatment
[3] = system: microbes deposited on hard substrates; assay: In vitro surface test (FIG. 20); settings: 100 ppm, contact time ten minutes
Salmonella choleraesuis = assay: In vitro carrier testing (Germicidal Spray Test); settings: 200 ppm, 10 minute exposure, glass carriers, 5% horse serum
Pseudomonas aeruginosa [4] = assay: In vitro carrier testing (Germicidal Spray Test); settings: 200 ppm, 10 minute exposure, glass carriers, 5% horse serum
[5] = system: Bacillus cereus vegetative cells; assay: Aqueous sporocidal testing, vegetative cells, 5-min treatment; settings: after 5-min treatment
B. Cereus spores = assay: Antimicrobial efficacy (FIG. 7), one minute; settings: lapse time one minute; below detection limit
rhinovirus = assay: Antimicrobial efficacy (FIG. 7), one minute; settings: lapse time one minute; below detection limit
P. aeruginosa = assay: Antimicrobial efficacy (FIG. 7), one minute; settings: lapse time one minute; below detection limit
rotavirus = assay: Antimicrobial efficacy (FIG. 7), one minute; settings: lapse time one minute; below detection limit
S. aureus = assay: Antimicrobial efficacy (FIG. 7), one minute; settings: lapse time one minute; below detection limit
FR = assay: Antimicrobial efficacy (FIG. 7), one minute; settings: lapse time one minute; below detection limit
E. coli = assay: Antimicrobial efficacy (FIG. 7), one minute; settings: lapse time one minute; below detection limit
poliovirus = assay: Antimicrobial efficacy (FIG. 7), one minute; settings: lapse time one minute; below detection limit
S. choleraesuis = assay: Antimicrobial efficacy (FIG. 7), one minute; settings: lapse time one minute; below detection limit

## chlorine dioxide
Escherichia coli
  log reduction: greater than or equal to 5 log
Pseudomonas aeruginosa [1]
  log reduction: greater than or equal to 5 log
[2]
  antimicrobial efficacy in suspension: total kill
Bacillus cereus spores; 5 ppm
  Population, spores: 5.93 log10 cfu/ml
  Reduction vs. Water, spores: 0.15 log10 cfu/ml
Bacillus cereus spores; 10 ppm
  Population, spores: 5.72 log10 cfu/ml
  Reduction vs. Water, spores: 0.36 log10 cfu/ml
Bacillus cereus spores; 50 ppm
  Population, spores: 4.74 log10 cfu/ml
  Reduction vs. Water, spores: 1.34 log10 cfu/ml
Bacillus cereus spores; 100 ppm
  Population, spores: 0.20 log10 cfu/ml
  Reduction vs. Water, spores: 5.88 log10 cfu/ml
Bacillus cereus spores; 200 ppm
  Population, spores: <0.30 log10 cfu/ml
  Reduction vs. Water, spores: >5.78 log10 cfu/ml
Bacillus cereus spores; 200 ppm, within 5 min
  log reduction of viable spore counts (complete kill): > 6 log
Bacillus cereus spores; FIG. 18, cocktail of five strains
  log kill of Bacillus cereus spores: total kill
[3]
  surface test kill: complete kill
Salmonella choleraesuis
  log reduction: greater than or equal to 5 log
Pseudomonas aeruginosa [4]
  log reduction: greater than or equal to 5 log
[5]; 5 ppm
  Population, vegetative cells: 3.88 log10 cfu/ml
  Reduction vs. Water, vegetative cells: 1.52 log10 cfu/ml
[5]; 10 ppm
  Population, vegetative cells: 3.88 log10 cfu/ml
  Reduction vs. Water, vegetative cells: 1.52 log10 cfu/ml
[5]; 50 ppm
  Population, vegetative cells: 3.22 log10 cfu/ml
  Reduction vs. Water, vegetative cells: 2.18 log10 cfu/ml
[5]; 100 ppm
  Population, vegetative cells: 0.15 log10 cfu/ml
  Reduction vs. Water, vegetative cells: 5.25 log10 cfu/ml
[5]; 200 ppm
  Population, vegetative cells: <0.30^2 log10 cfu/ml
  Reduction vs. Water, vegetative cells: >5.10 log10 cfu/ml
B. Cereus spores
  log kill: greater than 6 log
rhinovirus
  log kill: greater than 5 log
P. aeruginosa
  log kill: greater than 6 log
rotavirus
  log kill: greater than 4 log
S. aureus
  log kill: greater than 6 log
FR
  log kill: greater than 5 log
E. coli
  log kill: greater than 6 log
poliovirus
  log kill: greater than 4 log
S. choleraesuis
  log kill: greater than 5 log

Read-outs that look alike come from different tables or passages of the source.
